Percent effect of library compounds

Mtb glucose medium: 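Growth of Mycobacterium tuberculosis over 3 days (7H9 medium with glucose and tyloxapol); the read-out is not stated. Tested at 500 µM. Higher reads as more growth inhibition (inferred: compounds with an IC50 in retests scored well above the rest). Size under these conditions: about 18,000 compounds, about 1,400 of them at 50% or above in at least one test.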
Mtb cholesterol medium: 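Growth of Mycobacterium tuberculosis over 4 days (cholesterol / DPPC medium with tyloxapol); the read-out is not stated. Compounds at 500 µM. Higher reads as more growth inhibition (inferred: compounds with an IC50 in retests scored well above the rest). Of about 18,000 compounds tested this way, about 900 (5%) reached 50% or more in at least one test.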

Results are given as percent effect.
The record does not define 0% and 100%; most values in the screen are far below 50% and negative numbers occur (in some assays of this library far below -100).
The entries come from a sample that favours strong results.
A dash means the value is not listed here; it may have been measured.

| # | structure | Mtb glucose medium | Mtb cholesterol medium |
|---|---|---|---|
| 1 | `CCc1nc(CN[C@H](CO)C(C)C)no1` | 6.712% | - |
| 2 | `CS(=O)(=O)NCCC1CCCCN1CC1CCNCC1` (centres undefined) | 1.652% | - |
| 3 | `O=C(CCn1ccccc1=O)NCc1ccco1` | 26.62% | - |
| 4 | `Cc1c[nH]c(CN(C)C(=O)c2cc(C(F)F)n[nH]2)n1` | 22.77% | - |
| 5 | `N[C@@H]1CC[C@H](C(=O)NCCOCc2ccccc2)C1` | 68.95% | - |
| 6 | `NCc1ccnc(N2CCCC2)n1` | -19.02% | - |
| 7 | `O=S(=O)(CCN1CCCC(O)C1)c1ccc(Br)cc1` (centres undefined) | 97.17% | 94.29% |
| 8 | `CC1CCCN1CC(=O)Nc1ncccc1O` (centres undefined) | 2.205% | - |
| 9 | `NCC1CCN(Cc2cc(=O)c3cc(F)ccc3[nH]2)C1` (centres undefined) | 47.81% | - |
| 10 | `NCc1cnn(-c2cccc(Cl)c2)c1` | 70.61% | 56.44% |
| 11 | `CC(O)c1cccc(OCCC2OCCO2)c1` (centres undefined) | - | 41.14% |
| 12 | `CCSCC(=O)NCCCc1csc(N)n1` | 2.417% | - |
| 13 | `O=C(Nc1ncccn1)c1ccc(Br)o1` | 33.17% | - |
| 14 | `CN(CCNC(=O)NC1CCOCC1)C1CCCC1` | -7.975% | - |
| 15 | `CCCOc1cccc(NC(=O)C(C)n2cncn2)c1` (centres undefined) | 60.9% | - |
| 16 | `CN(C)CCN(C)c1cc(C2CC(O)C2)ncn1` (centres undefined) | - | 4.867% |
| 17 | `CC(=O)c1cc(CN2CCN(C(=O)N(C)C)CC2)cs1` | - | 8.233% |
| 18 | `CC(C)Cc1cc(N)sn1` | 21.75% | - |
| 19 | `CCOC(=O)c1cnc(C(=O)Nc2nncs2)c(Cl)c1` | -13.45% | - |
| 20 | `COC(C)(C)c1nsc(N)n1` | 7.525% | - |
| 21 | `NC(=O)c1csc(C(=O)Nc2cnn(CC(F)F)c2)c1` | 22.8% | - |
| 22 | `CC(C)C(C)(C#N)NC(=O)CSc1nncn1C` (centres undefined) | - | 3.044% |
| 23 | `COCCSc1nncn1CCc1ccccn1` | - | 9.917% |
| 24 | `CC(C)N(C)S(=O)(=O)NC1CCOc2ccccc21` (centres undefined) | 56.07% | - |
| 25 | `C=C(Br)CNC(C(=O)N1CCOCC1)C(C)C` (centres undefined) | -3.058% | - |
| 26 | `CC(C)C(C)N(C)c1ccc2nnnn2n1` (centres undefined) | -1.041% | - |
| 27 | `O=C(c1ccco1)N1CCCC1c1ccco1` (centres undefined) | - | -19.42% |
| 28 | `Cn1c(CNC(=O)C2=CCCCO2)nnc1C1CCC1` | 7.129% | - |
| 29 | `Cc1ccc(F)cc1CNCC1(O)CCOC1` (centres undefined) | - | 22.3% |
| 30 | `CCOc1ccnc(NCCc2nncn2CC)n1` | 6.35% | - |
| 31 | `NCCc1nc2c(s1)CCCC2` | 24.72% | 11.99% |
| 32 | `CC(C)COCCN1CCS(=O)(=O)CC(C)C1` (centres undefined) | 7.632% | - |
| 33 | `OC(c1cc(F)ccc1F)C1CCNCC1` (centres undefined) | 28.32% | - |
| 34 | `Cn1c(CNC(=O)Nc2nccs2)nnc1C1CC1` | -0.05156% | - |
| 35 | `Cc1ccc(CN2CC(O)(CC#N)C2)s1` | - | -13.54% |
| 36 | `Cc1nccn1CCCN1CCN(C)C(CCO)C1` (centres undefined) | - | 14.21% |
| 37 | `COCCC(C)CN` (centres undefined) | - | -12.71% |
| 38 | `Cc1nc(CCSc2nnc(C)n2CC(N)=O)cs1` | - | -1.036% |
| 39 | `COc1ccc(NC(=O)CC2CCN(C)CC2)cc1` | 26.05% | - |
| 40 | `Cc1occc1C(=O)N1CCCC(CNS(C)(=O)=O)C1` (centres undefined) | - | -1.977% |
| 41 | `NC[C@@H](O)c1cccc(Br)c1` | - | -2.51% |
| 42 | `NC1(C2CC2)CCOCC1` | 1.501% | - |
| 43 | `NCCS(=O)(=O)NCc1ccc(F)cc1` | - | 0.06336% |
| 44 | `CC(CN)N1CCN(C)CC1` (centres undefined) | 14.18% | - |
| 45 | `N#CCCN(CCC#N)Cc1cc[nH]n1` | - | -14.01% |
| 46 | `Cc1cc(CN2CCn3ccnc3C2)no1` | - | -17.46% |
| 47 | `CN1C(=O)c2ccc(S(N)(=O)=O)cc2C1=O` | -7.396% | - |
| 48 | `CC(C)C(=O)NCc1cn2ccccc2n1` | - | -0.9389% |
| 49 | `Cc1csc(NC(=O)CNC(=O)c2cccs2)n1` | 62.14% | - |
| 50 | `CC(C)(O)COc1ccc(S(C)(=O)=O)cc1` | 10.12% | - |
| 51 | `CCN(C(=O)c1coc(S(=O)(=O)NC)c1)C1CC1` | 10.24% | - |
| 52 | `COCCNC(=O)c1csc(-c2ccco2)n1` | 41.01% | 7.675% |
| 53 | `CNS(=O)(=O)CCCNC(C)c1ccc(C)o1` (centres undefined) | - | 5.324% |
| 54 | `Cc1cc(Br)cc(C(=O)NCc2nccc(N)n2)c1` | - | 80.48% |
| 55 | `CNc1nc(NCC2(CO)CCC2)ncc1Br` | 4.593% | - |
| 56 | `Cc1cnc(N)c(C)c1` | - | -4.811% |
| 57 | `COCCOC(=O)N1CCN2CCNC(=O)C2C1` (centres undefined) | 3.445% | - |
| 58 | `CC(C)(C#N)CCCSc1cnn[nH]1` | 25.99% | - |
| 59 | `Cc1noc(C2COCCN2Cc2cccnc2C)n1` (centres undefined) | 10.81% | - |
| 60 | `O=S1(=O)CCCN1c1ccccc1Br` | - | 9.094% |
| 61 | `COc1ccccc1C1CCN(C(=O)CCCN)C1` (centres undefined) | - | 22.91% |
| 62 | `NCc1ccccc1OCCN1CCOCC1` | 27.37% | - |
| 63 | `COc1cc(OC)cc(N2CCCNCC2)c1` | 71.57% | 60.54% |
| 64 | `CN(CCC(=O)Nc1ccccc1)CC(=O)N(C)C` | 0.8091% | -5.839% |
| 65 | `OCCC1CNCCN1CCCc1ccccc1` (centres undefined) | 33.06% | - |
| 66 | `CCOC(=O)C(CN)CC(C)C` (centres undefined) | 9.033% | - |
| 67 | `CC(NC(=O)C(C)(C)C)c1ccc(S(C)(=O)=O)cc1` (centres undefined) | 8.154% | - |
| 68 | `Cc1noc(C2CCCN(Cc3ccccn3)C2)n1` (centres undefined) | 11.73% | - |
| 69 | `CC(C)(C)C(=O)N1CCC(O)(C(F)(F)F)C1` (centres undefined) | 6.377% | - |
| 70 | `CCOc1ncccc1NC(=O)c1[nH]ncc1Br` | -13.1% | -6.931% |
| 71 | `CN1CCN(C(=O)Cc2ccccc2)CC1` | 13.95% | 12.65% |
| 72 | `CN(CC(N)=O)C(CCO)c1ccccc1` (centres undefined) | 5.898% | - |
| 73 | `COCCN(C)CCNC(=O)c1ccc(F)c(F)c1` | 21.5% | - |

Repeated from the top, 9 entries:

structure	Mtb glucose medium	Mtb cholesterol medium
CCc1nc(CN[C@H](CO)C(C)C)no1	6.712%	-
CS(=O)(=O)NCCC1CCCCN1CC1CCNCC1 (centres undefined)	1.652%	-
O=C(CCn1ccccc1=O)NCc1ccco1	26.62%	-
Cc1c[nH]c(CN(C)C(=O)c2cc(C(F)F)n[nH]2)n1	22.77%	-
N[C@@H]1CC[C@H](C(=O)NCCOCc2ccccc2)C1	68.95%	-
NCc1ccnc(N2CCCC2)n1	-19.02%	-
O=S(=O)(CCN1CCCC(O)C1)c1ccc(Br)cc1 (centres undefined)	97.17%	94.29%
CC1CCCN1CC(=O)Nc1ncccc1O (centres undefined)	2.205%	-
NCC1CCN(Cc2cc(=O)c3cc(F)ccc3[nH]2)C1 (centres undefined)	47.81%	-

The values are deposited in ChEMBL (CHEMBL3988442, “University of Dundee, Small-Polar-MMV Screening Library” (2021)).